{"source": "patent US10316099", "about": "(D GEN, dated 2019)", "binders": {"B1": {"name": "ICSM-18 (antibody, V domains shown)", "VH": "EVQLQQSGPELVKPGSSVKISCKASRNTFTDYNLDWVKQSHGKTLEWIGNVYPNNGVTGYNQKFRGKATLTVDKSSSTAYMELHSLTSEDSAVYYCALYYYDVSYWGQGTLVTVSA", "VL": "QIVLTQSPAIMSASPGEKVTMTCSASSSVSYMHWYQQKSGTSPKRWIYDTSKLASGVPARFSGSGSGTSYSLTISSMEAEDAATYFCHQWRSNPYTFGGGTKLEIKR"}}, "key": {"[1]": {"target": "T1, huPrP23-231 (human prion protein, residues 23 to 231) (human)"}, "[2]": {"target": "T1, huPrP23-231 (human prion protein, …)", "remark": "listed apart in the source"}, "[3]": {"target": "T1, huPrP23-231 (human prion protein, …)", "remark": "listed apart in the source"}}}
{"binder": "B1", "values": [{"measurement": "EC50 (read off the curve)", "setting": "[1]", "value": "~5", "unit": "nM"}, {"measurement": "IC50 (read off the curve)", "setting": "[2]", "value": "~20", "unit": "nM"}, {"measurement": "Kd", "setting": "[3]", "value": "~10", "unit": "nM"}, {"measurement": "Ki", "setting": "[3]", "value": "~20", "unit": "nM"}]}
